Measured values from several laboratories, pooled; numbers as filed in NIAID ChemDB.

All rows: target-level tests

Conditions beyond the fields shown may differ between rows.

smiles	agent	strain or isolate	mutations	target	method	read-out	tested at	value
CC(C)(C)c1ccc(-n2nnnc2SCC(=O)Nc2ccc(OCC(=O)NCc3ccc(C(=O)O)cc3)cc2Cl)c(Cl)c1	HIV-1	-	RT-K103 Y181C	Reverse transcriptase	PicoGreen / fluorescence	IC50	-	<1 µM
CCOC(=O)/C=C\n1ncnc1-c1cc(Cl)ccc1N	HIV-1	-	-	Rev:RRE	luciferase	IC50	-	0.04 µM
CC(C)(C)c1ccc(-n2nnnc2SCC(=O)Nc2ccc(-c3ccc(OCC(=O)O)cc3Cl)cc2Cl)c(Cl)c1	HIV-1	-	RT-K103 Y181C	Reverse transcriptase	PicoGreen / fluorescence	IC50	-	<1 µM
c1ccc2c(NCCCn3ccnc3)nc(-c3ccncc3)nc2c1	HIV-1	-	-	Capsid	AlphaScreen	IC50	-	152.8 µM
CC[C@H](C)[C@H](NC(=O)[C@@H](C[C@H](O)[C@H](CC(C)C)NC(=O)[C@H](CC(N)=O)NC(=O)[C@H](CCC(N)=O)NC(=O)[C@H](CO)NC(=O)[C@@H](N)C(C)C)C(C)C)C(=O)N[C@H](C(=O)O)C(C)C	HIV-2	-	-	Protease	-	Ki	-	0.009 µM
CC(C)(C#Cc1ccc(NC(=O)CSc2nnnn2-c2ccc(C3CC3)cc2Cl)c(Cl)c1)NCc1ccccc1O	HIV-1	WT	-	Reverse transcriptase	PicoGreen / fluorescence	IC50	-	<1 µM
Nc1ccn([C@H]2CC[C@@H](COP(=O)(O)OP(=O)(O)OP(=O)(O)O)O2)c(=O)n1	HIV	-	RT-L74V	Reverse transcriptase	-	fold resistance	-	3.33
CC(C)(CO)Oc1ccc(NC(=O)CSc2nnnn2-c2ccc(C3CC3)cc2Cl)c(Cl)c1	HIV-1	WT	-	Reverse transcriptase	PicoGreen / fluorescence	IC50	-	<1 µM
COC(=O)[C@]1(O)C[C@@H](O)[C@@H](O)[C@H](OC(=O)/C=C/c2ccc(O)c(O)c2)C1	HIV-2	-	-	RNase H	FRET	IC50	-	>20 µM
CN(C)c1cccc(Nc2nc(-c3cccnc3)nc3ccccc23)c1	HIV-1	-	-	Capsid	AlphaScreen	IC50	-	30.1 µM
CCOC(=O)C(=O)CC(=O)/C=C/c1cc(-c2ccccc2)cn1Cc1ccc(F)cc1	HIV-1	-	Y501A	RNase H	substrate cleavage / fluorescence	inhibition	100 µM	0%
CC(C)(C#Cc1ccc(NC(=O)CSc2nnnn2-c2ccc(CC3CC3)cc2Cl)c(Cl)c1)OCCN1CCCC1	HIV-1	WT	-	Reverse transcriptase	PicoGreen / fluorescence	IC50	-	<1 µM
O=C(Nc1ccc(Br)cc1C(=O)O)c1cccc(C(=O)Nc2ccc(Br)cc2C(=O)O)n1	HIV-2	-	-	Reverse transcriptase	-	IC50	-	>100 µg/mL
Cc1cc(F)c(-n2nnnc2SCC(=O)Nc2ccc(-c3ccc(C(C)(C)C(=O)O)cc3)cc2Cl)c(Cl)c1	HIV-1	-	RT-K103 Y181C	Reverse transcriptase	PicoGreen / fluorescence	IC50	-	<1 µM
O=C1c2c(O)c(=O)c(-c3nccs3)cn2CCN1Cc1cccc(Cl)c1F	HIV-1	-	-	Integrase	ELISA	IC50	-	<0.01 µM
CCOC(=O)C(=O)CC(=O)/C=C/c1cccn1Cc1ccc(C)cc1C	HIV-1	-	N474A	RNase H	substrate cleavage / fluorescence	IC50	-	>100 µM
Cc1cc(Cl)c(-n2nnnc2SCC(=O)Nc2ccc(C#CC(C)(C)C(=O)O)cc2Cl)cc1C(F)(F)F	HIV-1	-	RT-K103 Y181C	Reverse transcriptase	PicoGreen / fluorescence	IC50	-	<1 µM
COCC(=O)Nc1cn2ccn(Cc3cccc(Cl)c3)c(=O)c2c(O)c1=O	HIV-1	-	-	Integrase	ELISA	IC50	-	<0.01 µM
O=C(/C=C/c1cccn1Cc1ccc(F)cc1)CC(=O)C(=O)O	HIV-1	-	N474A	RNase H	substrate cleavage / fluorescence	inhibition	100 µM	45%
CS(=O)c1cn2ccn(Cc3cccc(Cl)c3)c(=O)c2c(O)c1=O	HIV-1	-	-	Integrase	ELISA	IC50	-	0.01–0.1 µM
C[C@H](O)CC[C@@]1(O)[C@@H](C)C[C@H](O[C@H]2O[C@@H](CO)[C@H](O)[C@@H](O)[C@@H]2O)CC1(C)C	HIV-2	-	-	RNase H	FRET	IC50	-	>20 µM
CC(C)(N)C#Cc1ccc(NC(=O)CSc2nnnn2-c2cc(C(F)(F)F)cc(C3CC3)c2Cl)c(Cl)c1F	HIV-1	-	RT-K103 Y181C	Reverse transcriptase	PicoGreen / fluorescence	IC50	-	<1 µM
OC[C@H]1O[C@@H](OCCc2ccc(O)cc2)[C@H](O)[C@@H](O)[C@@H]1O	HIV-2	-	-	RNase H	FRET	IC50	-	>20 µM
O=C(CCCCC(=O)Nc1ccccc1C(=O)O)Nc1ccccc1	HIV-2	-	-	Reverse transcriptase	-	IC50	-	>100 µg/mL
CC(C)(C#Cc1ccc(NC(=O)CSc2nnnn2-c2ccc(C3CC3)cc2Cl)c(Cl)c1)OCCN1CCC1	HIV-1	WT	-	Reverse transcriptase	PicoGreen / fluorescence	IC50	-	<1 µM
O=CC(O)C(OC(=O)c1cc(O)c(O)c(O)c1)C1OC(=O)c2cc(O)c(O)c(O)c2-c2c(cc(O)c(O)c2O)C(=O)OCC1O	HIV-1	-	-	gp120	binding	inhibition	3.13 µg/mL	39.1%
CCOC(=O)c1ccc(Nc2nc(-c3cccnc3)nc3ccccc23)cc1	HIV-1	-	-	Capsid	AlphaScreen	IC50	-	14.2 µM
Nc1ncnc2c1ncn2[C@H]1CC[C@@H](COP(=O)(O)OP(=O)(O)OP(=O)(O)O)O1	HIV	-	RT-L74V	Reverse transcriptase	-	fold resistance	-	4.5
CC(C)(O)[C@H]1CC[C@@](C)(O[C@H]2O[C@@H](CO)[C@H](O)[C@@H](O)[C@@H]2O)[C@H](O)C1	HIV-2	-	-	RNase H	FRET	IC50	-	>20 µM
Nc1ccn([C@@H]2CS[C@H](COP(=O)(O)OP(=O)(O)OP(=O)(O)O)O2)c(=O)n1	HIV	-	RT-K65R K103N	Reverse transcriptase	radiometric	Ki	-	1.184 µM
CN(CCc1ccncc1)C(=O)COc1ccc(NC(=O)CSc2nnnn2-c2ccc(C3CC3)cc2Cl)c(Cl)c1	HIV-1	-	RT-K103 Y181C	Reverse transcriptase	PicoGreen / fluorescence	IC50	-	<1 µM
O=C(O[C@@H]1O[C@@H]2COC(=O)c3cc(O)c(O)c(O)c3-c3c(cc(O)c(O)c3O)C(=O)O[C@H]([C@H]1O)[C@@H]2O)c1cc(O)c(O)c(O)c1	HIV-1	-	-	gp120 + CD4	ELISA	IC50	-	0.5 µg/mL
O=C(NCCN1CCCC1=O)c1cn2ccn(Cc3cccc(Cl)c3)c(=O)c2c(O)c1=O	HIV-1	-	-	Integrase	ELISA	IC50	-	0.01–0.1 µM
CC(C)(C#Cc1ccc(NC(=O)CSc2nnnn2-c2cc(C(F)(F)F)ccc2Cl)c(Cl)c1)NC(=O)C1CC1	HIV-1	WT	-	Reverse transcriptase	PicoGreen / fluorescence	IC50	-	<1 µM
O=C(Cc1cc(=O)c(O)c2n1CCN(Cc1ccc(Cl)c(Cl)c1)C2=O)OCc1ccccc1	HIV-1	-	-	Integrase	ELISA	IC50	-	<0.01 µM
Cc1ccc(-n2c(C)cnc2SCC(=O)Nc2ccc(-c3ccc(CC(=O)O)cc3)cc2Cl)c(Cl)c1	HIV-1	-	RT-K103 Y181C	Reverse transcriptase	PicoGreen / fluorescence	IC50	-	<1 µM
O=C1c2c(O)c(=O)cc(COc3ccccc3)n2CCN1Cc1ccc(Cl)c(Cl)c1	HIV-1	-	-	Integrase	ELISA	IC50	-	0.01–0.1 µM
O=CC1OC(=O)c2cc(O)c(O)c(O)c2Oc2cc3c(c(O)c2O)-c2c(cc(O)c(O)c2O)C(=O)OCC2OC(OC(=O)c4cc(O)c(O)c(O)c4Oc4cc5c(c(O)c4O)-c4c(cc(O)c(O)c4O)C(=O)OC(C(O)COC5=O)C1OC(=O)c1cc(O)c(O)c(O)c1)C(OC(=O)c1cc(O)c(O)c(O)c1)C(OC(=O)c1cc(O)c(O)c(O)c1)C2OC3=O	HIV-1	-	-	gp120	binding	inhibition	6.25 µg/mL	64.7%
CC(C)(C#Cc1ccc(NC(=O)CSc2nnnn2-c2ccc(C3CC3)cc2Cl)c(Cl)c1F)C(=O)O	HIV-1	WT	-	Reverse transcriptase	PicoGreen / fluorescence	IC50	-	<1 µM
CCC(=O)c1cn2ccn(Cc3cccc(Cl)c3)c(=O)c2c(O)c1=O	HIV-1	-	-	Integrase	ELISA	IC50	-	<0.01 µM
CN(C)CC(=O)NC(C)(C)C#Cc1ccc(NC(=O)CSc2nnnn2-c2cc(C(F)(F)F)ccc2Cl)c(Cl)c1	HIV-1	-	RT-K103 Y181C	Reverse transcriptase	PicoGreen / fluorescence	IC50	-	<1 µM
O=C(Nc1ccc(Br)cc1C(=O)O)c1cncc(C(=O)Nc2ccc(Br)cc2C(=O)O)c1	HIV-2	-	-	Reverse transcriptase	-	IC50	-	>100 µg/mL

For reference, 5 entries again:

smiles,agent,strain or isolate,mutations,target,method,read-out,tested at,value
CC(C)(C#Cc1ccc(NC(=O)CSc2nnnn2-c2ccc(C3CC3)cc2Cl)c(Cl)c1)OCCN1CCC1,HIV-1,WT,-,Reverse transcriptase,PicoGreen / fluorescence,IC50,-,<1 µM
O=C(NCCN1CCCC1=O)c1cn2ccn(Cc3cccc(Cl)c3)c(=O)c2c(O)c1=O,HIV-1,-,-,Integrase,ELISA,IC50,-,0.01–0.1 µM
O=CC(O)C(OC(=O)c1cc(O)c(O)c(O)c1)C1OC(=O)c2cc(O)c(O)c(O)c2-c2c(cc(O)c(O)c2O)C(=O)OCC1O,HIV-1,-,-,gp120,binding,inhibition,3.13 µg/mL,39.1%
O=C(O[C@@H]1O[C@@H]2COC(=O)c3cc(O)c(O)c(O)c3-c3c(cc(O)c(O)c3O)C(=O)O[C@H]([C@H]1O)[C@@H]2O)c1cc(O)c(O)c(O)c1,HIV-1,-,-,gp120 + CD4,ELISA,IC50,-,0.5 µg/mL
CC(C)(C#Cc1ccc(NC(=O)CSc2nnnn2-c2ccc(CC3CC3)cc2Cl)c(Cl)c1)OCCN1CCCC1,HIV-1,WT,-,Reverse transcriptase,PicoGreen / fluorescence,IC50,-,<1 µM

Inhibition is in % at the dose shown (toxicity tests: loss of growth or viability). ICn is the concentration giving n% inhibition. Two numbers with a dash give a range or band. Fold resistance: result on the changed form divided by that on wild type. Blank or dashed fields: not listed here.